Pooled drug test results. Numbers come from NIAID ChemDB, via PubChem.

All rows: growth or infection tests; species: HIV-1; method: syncytia; measure: EC50

An empty or dashed field is not shown. ECn is the concentration giving n% inhibition of infection, replication or growth. Lines come from different laboratories, so protocols vary.

SMILES | strain or isolate | cell line | changes | value
COc1cc(OC[C@H]2CC[C@@H](CO)O2)nc(N)n1 | IIIB | CEM |  | >50 µM
Cc1ccc(C)c(C(C)S(=O)(=O)c2ccc(C)c[n+]2[O-])c1 | IIIB | CEM |  | 9.6 µg/mL
CC(C)(C)OC(=O)c1cc(NC(=S)OC(C)(C)C)ccc1Cl | IIIB | CEM |  | 1.89 µM
O=C(c1cccc([N+](=O)[O-])c1)c1ccc2c(c1)sc(=O)n2Cc1ccccc1 | IIIB | CEM |  | >1.6 µg/mL
CCCCCCCCCCCC(=O)Oc1ccc(COP(=O)(OCc2ccc(OC(=O)CCCCCCCCCCC)cc2)OP(=O)([O-])OC[C@@H]2C=C[C@H](n3ccc(=O)[nH]c3=O)O2)cc1 | IIIB | CEM |  | >50 µM
CN1C(=O)[C@@H](c2cc(Cl)c(O)c(Cl)c2)NC(=O)[C@@H]2NC(=O)[C@H](c3cc(Cl)c(O)c(Cl)c3)NC(=O)[C@@H](NC(=O)C(=O)c3cc(Cl)c(O)c(Cl)c3)Cc3c[nH]c4cc(ccc34)-c3cc2cc(c3O)Oc2ccc(cc2)C[C@H]1C(=O)N[C@@H](C(=O)O)c1ccc(O)cc1 | IIIB | MOLT-4 |  | 0.9 µg/mL
CC(=O)OC[C@H]1O[C@@H](n2ccc(N)nc2=O)CS1 | BRU | MT-4 |  | <100 µM
O=c1[nH]c2ccc(Cc3ccc(F)cc3)cc2o1 | IIIB | CEM |  | >8 µg/mL
CC1=C[C@@H]([C@H]2O[C@@H]3Cc4c(ccc5c4C=C[C@H]4C(C)(C)O[C@@H]6CC(=O)O[C@@]64C5)[C@@H]3[C@@H]2C)OC1=O | IIIB | C8166 |  | 9.75 µg/mL
CC(C)OC(=S)Nc1ccc(Cl)c(COC(C)(C)C)c1 | IIIB | CEM |  | 14.25 µM
COc1cc(OC[C@H]2CC[C@@H](CO)O2)ncn1 | IIIB | CEM |  | >50 µM
CC(C)OC(=O)c1cc(NC(=S)OCC2CC2)ccc1Cl |  | CEM | RT-L100I | 7.603 µM
C=C(C)[C@@H]1CC[C@]2(C(=O)NCCCCCCCC(=O)N[C@@H](CC(C)C)[C@@H](O)CC(=O)O)CC[C@]3(C)[C@H](CC[C@@H]4[C@@]5(C)CC[C@H](O)C(C)(C)[C@@H]5CC[C@]43C)[C@@H]12 | LAI-R(GP41-R22A I84S) | HeLa P4 + HeLa | R22A I84S | >30 µM
CC1=C(/C=C/C=C/C=C/C=C/C(=O)OC[C@H]2O[C@@H](n3ccc(N)nc3=O)CS2)C(C)(C)CCC1 | BRU | MT-4 |  | ~1 µM
O=c1ccn([C@H]2CC[C@@H](CO)O2)c(=O)[nH]1 | IIIB | CEM |  | >250 µM
CC(C)(C)OC(=O)N[C@@H](Cc1ccc(O)cc1)C(=O)N1CCC(=O)[C@H]1Sc1ccccc1 |  | MT-4 |  | 0.1 µM
CCC(C)OC(=O)c1cc(NC(=S)OC(C)C)ccc1Cl |  | CEM | RT-E138K | 1.667 µM
Cc1ccc(C(C)S(=O)(=O)c2c(C)ccc[n+]2[O-])c(C)c1 | IIIB | CEM | RT-Y181C | 50 µg/mL
O=C(c1cccc(F)c1)c1ccc2c(c1)oc(=O)n2CCN1CCCCC1 | IIIB | CEM |  | 5.8 µg/mL
O=C(N[C@@H](Cc1ccccc1)C(=O)N1CCC(=O)C1Sc1ccccc1)c1cccnc1 |  | MT-4 |  | 1 µM
NCCNC(=O)c1cn([C@@H]2CS[C@@H](CO)O2)c(=O)[nH]c1=O |  | MT-4 |  | >200 µM
Cn1c(=O)sc2cc(C(=O)c3ccc(Cl)c(Cl)c3)ccc21 | IIIB | CEM |  | >8 µg/mL
CC(=O)OCCOC(=O)c1cc(NC(=S)OC(C)C)ccc1Cl | IIIB | CEM |  | 2.779 µM
CC(C)(C)OC(=O)NCCNC(=O)c1cn([C@@H]2CS[C@@H](COC(=O)c3ccccc3)O2)c(=O)[nH]c1=O |  | MT-4 |  | >200 µM
O=C(c1ccc([N+](=O)[O-])cc1)c1ccc2[nH]c(=O)oc2c1 | IIIB | CEM |  | >8 µg/mL
CC(C)OC(=S)Nc1ccc(Cl)c(C(=O)OC(C)(C)C)c1 |  | CEM | RT-E138K | 4.244 µM
Cc1ccc(C)c(CS(=O)(=O)c2cccc[n+]2[O-])c1 | IIIB | CEM | RT-L100I | 10 µg/mL
CC(C)OC(=S)Nc1ccc(Cl)c(C(=O)OCc2ccccc2)c1 |  | CEM | RT-V106A | 23.36 µM
Nc1cc(OC[C@@H]2O[C@H](CO)[C@@H](O)[C@H]2O)nc(N)n1 | IIIB | CEM |  | >100 µM
CCC(C)OC(=S)Nc1ccc(Cl)c(C(=O)OC(C)(C)C)c1 |  | CEM | RT-Y181C | 1.454 µM
S=c1nc2ccc(Cl)cc2c(NOCCN2CCOCC2)c2ccccc12 | LAV | H9 |  | 0.38 µM
Nc1ccnc(OC[C@H]2CC[C@@H](CO)O2)n1 | IIIB | CEM |  | >250 µM
CCOC(=O)C(C)Oc1cc(NC(=S)OC(C)C)ccc1Cl |  | CEM | RT-V106A | 4.337 µM
Cc1cccc(CS(=O)(=O)c2cccc[n+]2[O-])c1 | MN | CEM |  | 13 µg/mL
Cn1c(=O)sc2cc(C(=O)c3cccc(F)c3)ccc21 | IIIB | CEM |  | >200 µg/mL
CC(=O)Nc1ccn([C@H]2CS[C@@H](CO)O2)c(=O)n1 | BRU | MT-4 |  | 0.1 µM
COc1ccc(C)cc1CS(=O)(=O)c1cccc[n+]1[O-] | RF | CEM |  | 10 µg/mL
Cc1cn([C@@H]2CS[C@H](CO)O2)c(=O)[nH]c1=O |  | MT-4 |  | >200 µM
CC(C)OC(=S)Nc1ccc(Cl)c(C(=O)OC2CC2)c1 |  | CEM | RT-V106A | 6.373 µM
Cc1cn([C@H]2C=C[C@@H](CO)O2)c(=O)[nH]c1=O | IIIB | CEM |  | 0.52 µM
CC(C)OC(=O)Nc1ccc(Cl)c(C(=O)OC(C)C)c1 |  | CEM | RT-E138K | >33.36 µM
Cc1ccc(C)c(C(C)S(=O)(=O)c2c(C)ccc[n+]2[O-])c1 | IIIB | CEM | RT-K103N | 12 µg/mL
C=CCOc1cc(NC(=S)OC(C)C)ccc1C#N |  | CEM | RT-V106A | 1.447 µM
Cc1cn([C@H]2CS[C@H](CO)O2)c(=O)[nH]c1=O |  | MT-4 |  | >200 µM
C#CCOc1cc(NC(=S)OC(C)C)ccc1Cl |  | CEM | RT-L100I | 14.1 µM
CCCCC(=O)c1ccc2c(c1)sc(=O)n2Cc1ccccc1 | IIIB | CEM |  | >8 µg/mL
CC(C)OC(=O)c1cc(NC(=S)N(C)C(C)C)ccc1Cl |  | CEM | RT-V106A | >30.32 µM
COc1ccc(C[C@H](NC(=O)OC(C)(C)C)C(=O)N2CCC(=O)[C@@H]2Sc2ccccc2)cc1 |  | MT-4 |  | >100 µM
C=CCOc1cc(NC(=S)OC(C)C)ccc1Cl | IIIB | CEM |  | 0.735 µM
CCCCCCC(=O)Oc1ccc(COP(=O)(OCc2ccc(OC(=O)CCCCCC)cc2)OP(=O)([O-])OC[C@@H]2CC[C@H](n3ccc(=O)[nH]c3=O)O2)cc1 | IIIB | CEM |  | 26 µM
CC(C)OC(=O)c1cc(NC(=S)OC(C)C)ccc1Cl |  | CEM | RT-Y181C | 1.9 µM
CCC(=O)c1ccc2c(c1)sc(=O)n2CCN1CCCCC1 | IIIB | CEM |  | >40 µg/mL
C/C=C\COc1cc(NC(=S)OC(C)C)ccc1Cl |  | CEM | RT-E138K | 0.3 µM
CC(C)C(=O)Oc1ccc(COP(=O)(OCc2ccc(OC(=O)C(C)C)cc2)OP(=O)([O-])OC[C@@H]2CC[C@H](n3ccc(=O)[nH]c3=O)O2)cc1 | IIIB | CEM |  | >50 µM

Again, the opening 6 rows:

SMILES	strain or isolate	cell line	changes	value
COc1cc(OC[C@H]2CC[C@@H](CO)O2)nc(N)n1	IIIB	CEM		>50 µM
Cc1ccc(C)c(C(C)S(=O)(=O)c2ccc(C)c[n+]2[O-])c1	IIIB	CEM		9.6 µg/mL
CC(C)(C)OC(=O)c1cc(NC(=S)OC(C)(C)C)ccc1Cl	IIIB	CEM		1.89 µM
O=C(c1cccc([N+](=O)[O-])c1)c1ccc2c(c1)sc(=O)n2Cc1ccccc1	IIIB	CEM		>1.6 µg/mL
CCCCCCCCCCCC(=O)Oc1ccc(COP(=O)(OCc2ccc(OC(=O)CCCCCCCCCCC)cc2)OP(=O)([O-])OC[C@@H]2C=C[C@H](n3ccc(=O)[nH]c3=O)O2)cc1	IIIB	CEM		>50 µM
CN1C(=O)[C@@H](c2cc(Cl)c(O)c(Cl)c2)NC(=O)[C@@H]2NC(=O)[C@H](c3cc(Cl)c(O)c(Cl)c3)NC(=O)[C@@H](NC(=O)C(=O)c3cc(Cl)c(O)c(Cl)c3)Cc3c[nH]c4cc(ccc34)-c3cc2cc(c3O)Oc2ccc(cc2)C[C@H]1C(=O)N[C@@H](C(=O)O)c1ccc(O)cc1	IIIB	MOLT-4		0.9 µg/mL